Literature values, collected in patent US20060057614A1 (priority 2004, published 2006).

Amino acid sequences for entries named in this document (tags omitted). A change or cut given only in a name is not applied to a line headed by its entry.
UniProt P36544: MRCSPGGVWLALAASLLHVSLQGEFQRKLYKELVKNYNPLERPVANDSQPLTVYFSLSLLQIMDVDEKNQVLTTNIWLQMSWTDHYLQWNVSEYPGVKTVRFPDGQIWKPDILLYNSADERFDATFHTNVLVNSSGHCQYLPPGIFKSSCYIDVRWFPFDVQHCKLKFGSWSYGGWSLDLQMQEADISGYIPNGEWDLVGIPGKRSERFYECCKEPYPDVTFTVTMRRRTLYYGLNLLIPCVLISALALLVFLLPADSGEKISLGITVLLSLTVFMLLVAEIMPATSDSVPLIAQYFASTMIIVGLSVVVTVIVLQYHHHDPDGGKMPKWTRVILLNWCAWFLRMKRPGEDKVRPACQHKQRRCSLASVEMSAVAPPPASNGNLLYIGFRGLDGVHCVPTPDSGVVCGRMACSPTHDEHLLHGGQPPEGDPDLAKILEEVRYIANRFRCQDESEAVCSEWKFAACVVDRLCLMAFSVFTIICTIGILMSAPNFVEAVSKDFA
UniProt Q00975: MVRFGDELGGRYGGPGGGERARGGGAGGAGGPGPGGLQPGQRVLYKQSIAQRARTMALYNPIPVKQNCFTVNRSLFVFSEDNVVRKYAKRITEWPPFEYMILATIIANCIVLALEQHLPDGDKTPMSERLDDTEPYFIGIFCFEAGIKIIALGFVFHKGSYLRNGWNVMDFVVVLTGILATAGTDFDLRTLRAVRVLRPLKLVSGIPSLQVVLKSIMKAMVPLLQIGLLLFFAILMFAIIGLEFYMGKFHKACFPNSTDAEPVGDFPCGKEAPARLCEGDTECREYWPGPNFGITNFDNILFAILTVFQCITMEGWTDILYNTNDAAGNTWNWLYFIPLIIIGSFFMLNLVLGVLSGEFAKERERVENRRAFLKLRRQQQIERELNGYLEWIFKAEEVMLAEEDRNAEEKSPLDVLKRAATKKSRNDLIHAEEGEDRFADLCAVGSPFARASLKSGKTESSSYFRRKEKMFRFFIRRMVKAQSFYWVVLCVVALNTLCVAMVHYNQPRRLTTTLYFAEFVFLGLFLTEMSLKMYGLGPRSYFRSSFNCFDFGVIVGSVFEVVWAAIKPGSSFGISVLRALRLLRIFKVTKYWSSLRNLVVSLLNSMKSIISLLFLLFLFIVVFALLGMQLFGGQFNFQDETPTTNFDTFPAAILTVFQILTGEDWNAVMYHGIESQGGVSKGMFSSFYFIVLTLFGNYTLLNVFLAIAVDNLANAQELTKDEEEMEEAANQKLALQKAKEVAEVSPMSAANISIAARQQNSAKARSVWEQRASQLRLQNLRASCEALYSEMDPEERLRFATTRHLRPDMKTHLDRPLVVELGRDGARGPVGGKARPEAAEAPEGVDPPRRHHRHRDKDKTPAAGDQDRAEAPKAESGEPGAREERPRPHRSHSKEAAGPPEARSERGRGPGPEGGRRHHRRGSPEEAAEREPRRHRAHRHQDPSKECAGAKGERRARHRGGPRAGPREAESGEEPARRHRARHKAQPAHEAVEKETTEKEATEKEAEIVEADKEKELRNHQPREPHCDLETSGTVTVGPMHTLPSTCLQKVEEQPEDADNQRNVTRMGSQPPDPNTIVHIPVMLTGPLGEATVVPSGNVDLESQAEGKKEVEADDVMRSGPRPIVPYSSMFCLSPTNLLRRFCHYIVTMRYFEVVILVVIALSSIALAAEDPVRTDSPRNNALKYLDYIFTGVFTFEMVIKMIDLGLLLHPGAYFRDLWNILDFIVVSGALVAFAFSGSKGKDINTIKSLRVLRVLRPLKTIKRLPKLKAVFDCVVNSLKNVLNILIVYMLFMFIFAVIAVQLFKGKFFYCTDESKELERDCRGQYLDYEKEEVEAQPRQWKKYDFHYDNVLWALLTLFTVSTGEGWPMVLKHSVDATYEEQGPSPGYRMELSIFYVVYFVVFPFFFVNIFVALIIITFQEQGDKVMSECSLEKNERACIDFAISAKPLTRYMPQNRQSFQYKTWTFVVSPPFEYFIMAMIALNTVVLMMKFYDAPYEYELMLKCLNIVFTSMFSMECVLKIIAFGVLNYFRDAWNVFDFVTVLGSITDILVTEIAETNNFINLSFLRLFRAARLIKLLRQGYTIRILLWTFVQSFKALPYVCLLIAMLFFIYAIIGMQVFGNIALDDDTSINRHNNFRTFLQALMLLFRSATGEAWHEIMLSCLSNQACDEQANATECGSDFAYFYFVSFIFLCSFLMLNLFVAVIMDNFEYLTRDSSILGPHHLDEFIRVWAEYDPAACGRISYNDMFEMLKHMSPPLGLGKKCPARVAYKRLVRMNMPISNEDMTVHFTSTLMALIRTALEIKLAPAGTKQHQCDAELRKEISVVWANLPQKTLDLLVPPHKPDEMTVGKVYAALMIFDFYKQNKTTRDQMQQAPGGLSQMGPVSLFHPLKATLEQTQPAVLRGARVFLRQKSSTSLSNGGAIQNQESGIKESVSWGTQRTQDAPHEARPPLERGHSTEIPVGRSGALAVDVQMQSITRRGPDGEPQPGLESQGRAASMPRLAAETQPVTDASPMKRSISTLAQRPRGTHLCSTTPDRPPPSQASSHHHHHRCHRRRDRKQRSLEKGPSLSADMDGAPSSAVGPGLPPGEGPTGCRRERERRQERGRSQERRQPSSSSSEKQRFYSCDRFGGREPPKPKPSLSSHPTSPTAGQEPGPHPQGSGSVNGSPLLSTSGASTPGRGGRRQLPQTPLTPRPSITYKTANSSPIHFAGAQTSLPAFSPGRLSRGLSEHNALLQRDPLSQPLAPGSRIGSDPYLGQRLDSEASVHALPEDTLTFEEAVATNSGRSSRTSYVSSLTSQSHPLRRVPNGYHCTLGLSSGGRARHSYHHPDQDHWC
UniProt P04775: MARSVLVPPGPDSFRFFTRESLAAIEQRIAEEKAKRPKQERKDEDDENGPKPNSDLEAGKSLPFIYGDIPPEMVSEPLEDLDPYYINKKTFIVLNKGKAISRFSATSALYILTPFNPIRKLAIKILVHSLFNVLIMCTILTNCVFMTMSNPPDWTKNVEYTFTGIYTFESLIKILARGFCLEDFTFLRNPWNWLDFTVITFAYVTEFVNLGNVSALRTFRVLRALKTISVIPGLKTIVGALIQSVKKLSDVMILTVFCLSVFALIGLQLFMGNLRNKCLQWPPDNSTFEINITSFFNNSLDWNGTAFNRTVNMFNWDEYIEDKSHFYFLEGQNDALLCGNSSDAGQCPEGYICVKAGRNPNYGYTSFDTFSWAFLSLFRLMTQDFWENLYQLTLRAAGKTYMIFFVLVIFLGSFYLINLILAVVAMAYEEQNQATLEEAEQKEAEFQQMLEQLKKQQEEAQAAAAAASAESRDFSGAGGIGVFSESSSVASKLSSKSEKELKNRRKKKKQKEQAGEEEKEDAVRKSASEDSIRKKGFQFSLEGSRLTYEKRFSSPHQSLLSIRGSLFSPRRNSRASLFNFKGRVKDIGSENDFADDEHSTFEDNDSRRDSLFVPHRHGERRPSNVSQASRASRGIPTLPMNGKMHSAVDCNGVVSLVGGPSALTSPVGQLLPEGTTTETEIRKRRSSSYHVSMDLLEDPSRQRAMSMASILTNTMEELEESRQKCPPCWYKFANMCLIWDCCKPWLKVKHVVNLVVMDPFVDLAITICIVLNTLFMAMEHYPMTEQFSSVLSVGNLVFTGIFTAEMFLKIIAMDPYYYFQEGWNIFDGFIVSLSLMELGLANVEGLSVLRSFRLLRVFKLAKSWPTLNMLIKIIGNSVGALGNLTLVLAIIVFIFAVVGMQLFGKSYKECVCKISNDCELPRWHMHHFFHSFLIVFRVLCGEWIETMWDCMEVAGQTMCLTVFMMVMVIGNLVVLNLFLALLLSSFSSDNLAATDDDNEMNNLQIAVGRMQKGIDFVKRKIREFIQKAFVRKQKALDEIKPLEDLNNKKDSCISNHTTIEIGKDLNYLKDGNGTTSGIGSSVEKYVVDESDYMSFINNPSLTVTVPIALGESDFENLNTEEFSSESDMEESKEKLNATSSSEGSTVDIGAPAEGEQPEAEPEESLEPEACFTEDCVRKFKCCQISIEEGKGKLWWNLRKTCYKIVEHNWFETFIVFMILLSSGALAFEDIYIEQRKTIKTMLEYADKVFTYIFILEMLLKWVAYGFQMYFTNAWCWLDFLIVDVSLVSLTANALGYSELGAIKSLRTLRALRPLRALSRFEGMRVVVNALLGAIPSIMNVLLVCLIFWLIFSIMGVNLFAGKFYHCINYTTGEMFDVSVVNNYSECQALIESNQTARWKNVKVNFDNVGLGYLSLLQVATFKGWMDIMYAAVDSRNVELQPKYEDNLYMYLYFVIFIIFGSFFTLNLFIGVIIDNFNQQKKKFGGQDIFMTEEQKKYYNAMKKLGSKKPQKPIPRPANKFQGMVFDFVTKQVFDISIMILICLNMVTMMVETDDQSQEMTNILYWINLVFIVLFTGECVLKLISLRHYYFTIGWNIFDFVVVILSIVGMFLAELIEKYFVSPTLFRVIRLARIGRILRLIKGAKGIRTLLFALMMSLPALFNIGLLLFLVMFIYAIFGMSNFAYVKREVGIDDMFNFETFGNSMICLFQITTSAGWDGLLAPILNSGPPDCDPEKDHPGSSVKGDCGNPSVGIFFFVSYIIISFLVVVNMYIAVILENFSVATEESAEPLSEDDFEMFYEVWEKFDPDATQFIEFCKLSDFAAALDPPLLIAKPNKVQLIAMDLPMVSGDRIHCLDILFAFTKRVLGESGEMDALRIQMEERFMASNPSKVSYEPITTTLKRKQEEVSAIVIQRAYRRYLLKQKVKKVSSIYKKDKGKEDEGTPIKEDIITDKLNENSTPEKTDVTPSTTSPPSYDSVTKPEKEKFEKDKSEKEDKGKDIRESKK

How the values were obtained:
Details in all cases: soluble toxin; cited from earlier work
α7nAChR = α7nAChR (Homo sapiens, UniProt P36544)
Cav2.2 = Cav2.2 (Homo sapiens, UniProt Q00975)
Nav1.2 = Nav1.2 (Rattus norvegicus, UniProt P04775)

For α-conotoxin PnlB, the Affinity (α7nAChR) is listed as 61.3 nM.
For ω-conotoxin MVIIA, the Affinity (Cav2.2) is given as 1 nM.
For μ-o-conotoxin MrVIA, the Affinity (Nav1.2) is given as 200 nM.
